System: METH-sensitized rats
Assay: Reversal of METH-induced behavioral sensitization by 5-HT2A/2C antagonists (motor activity after acute METH challenge)
Conditions: rat, in vivo
Excerpt: Automation of observational evaluations was accomplished using computerized small animal monitors (AccuScan Instr. Inc., Columbus, Ohio). […] One feature of drug-induced behavioral sensitization is heterogeneity of motor responses and the AccuScan monitors quantify numerous behavioral indices. This is a critical point for the motor profile is exquisitely related to METH dose, the drug history of the rat and observation time. After 3- or 31-days of withdrawal from repeated METH injections, rats were allowed to achieve baseline motor activity with a 30 min habituation period, challenged with 1 mg/kg sc METH and monitored for 90 min. As shown in FIGS. 1a-b, a “sensitized” motor response was clearly expressed in the METH-pretreatment group to the METH challenge at the 3-day withdrawal period for both Horizontal Activity and Stereotypy Counts (data not shown) and with slight early effects on Vertical Movements.
Multiple 5-HT2A/2C antagonists with differing pharmacological profiles were tested for their ability to ameliorate METH-induced behavioral sensitization when administered after sensitization has developed. […]. The doses were selected based on the antagonists' ability to block 5-HT2A- and 5-HT2C-mediated activity and their pharmacokinetic profiles. […]

## CN1CCN2c3ccccc3Cc3ccccc3C2C1 (centres unmarked) [mianserin]
  horizontal and vertical activity endpoints in METH-pretreated rats: further reduced
  total distance traveled, ambulatory time, vertical activity (early) and vertical time (early) indices of METH-induced sensitized behaviors: attenuated

From US20060035889A1, “Treatment for methamphetamine addiction and reduction of methamphetamine use using serotonin antagonists” (priority 2004, published 2006)
